Compound potency records, mixed from different reports. Data source: NIAID ChemDB in PubChem.

All rows: host cell toxicity; cells: HFF; measure: CC50

CCn is the concentration with n% toxicity to the cells. Lines come from different laboratories, so protocols vary. Blank or dashed fields: not listed here.

| compound | method | result |
|---|---|---|
| OC[C@H]1O[C@@H](n2cnc3cnnnc32)[C@H](O)[C@@H]1O | - | >100 µM |
| Nc1nc2ncn(/C=C3\C(F)C3(CO)CO)c2c(=O)[nH]1 | - | 260 µM |
| COc1cc(OC)c(NC(=S)Nc2ccc(NC(=O)c3ccco3)cc2C(F)(F)F)cc1Cl | MTS | ≥10 µg/mL |
| CC(N)c1cn([C@H]2C[C@H](O)[C@@H](CO)O2)c(=O)[nH]c1=O | - | >175 µM |
| CC(C)Nc1nc2cc(Cl)c(Cl)cc2n1[C@H]1O[C@@H](CO)[C@H](O)[C@@H]1O | neutral red | 243 µM |
| OCCOCn1cnc2c(Cl)cc(Cl)cc21 | visual reading | >100 µM |
| O=C(Nc1ccc(NC(=S)Nc2cc(C(F)(F)F)cc(C(F)(F)F)c2)cc1)c1csnn1 | MTS | ≥10 µg/mL |
| OCC(CO)OCn1c(Br)nc2c(Cl)c(Cl)ccc21 | visual reading | >100 µM |
| O=C(Nc1ccc(NC(=S)Nc2ccc(C(F)(F)F)c(Cl)c2)cc1)c1cscn1 | MTS | ≥10 µg/mL |
| [N-]=[N+]=NC(CBr)c1cn([C@H]2C[C@H](O)[C@@H](CO)O2)c(=O)[nH]c1=O | - | >130 µM |
| O=C(Nc1ccc(NC(=S)Nc2ccc(Cl)c(C(F)(F)F)c2)cc1)c1ccco1 | MTS | ≥10 µg/mL |
| CN(C)c1nc2c(Cl)cc(Cl)cc2n1COC(CO)CO | visual reading | >100 µM |
| CNc1nnnc2c1ncn2[C@@H]1O[C@H](CO)[C@@H](O)[C@H]1O | - | 70 µM |
| OC[C@H]1O[C@@H](n2c(Br)nc3cc(Cl)c(Cl)cc32)[C@H](O)[C@@H]1O | - | >250 µM |
| OCC(CO)OCn1c(=S)[nH]c2c(Cl)c(Cl)ccc21 | visual reading | >100 µM |
| Nc1ccn(C[C@@H](CO)OCP(=O)(O)O)c(=O)n1 | - | >317 µM |
| OCC(CO)OCn1c(Cl)nc2c(Cl)c(Cl)ccc21 | visual reading | >100 µM |
| O=C(Nc1ccc(NC(=S)Nc2cccc(C(F)(F)F)c2)cc1)c1ccco1 | MTS | ≥10 µg/mL |
| CC(N=[N+]=[N-])c1cn([C@H]2C[C@H](O)[C@@H](CO)O2)c(=O)[nH]c1=O | - | >250 µM |
| O=C(Nc1ccc(NC(=S)Nc2cc(C(F)(F)F)cc(C(F)(F)F)c2)cc1)c1cocn1 | MTS | ≥10 µg/mL |
| O=[N+]([O-])c1ccc(CSc2nnnc3c2ncn3[C@@H]2O[C@H](CO)[C@@H](O)[C@H]2O)cc1 | - | >100 µM |
| OCC(CO)OCn1c(=S)[nH]c2c(Cl)cc(Cl)cc21 | visual reading | >100 µM |

2 of the rows above, restated:

| compound | method | result |
|---|---|---|
| O=C(Nc1ccc(NC(=S)Nc2cc(C(F)(F)F)cc(C(F)(F)F)c2)cc1)c1cocn1 | MTS | ≥10 µg/mL |
| OCC(CO)OCn1c(Cl)nc2c(Cl)c(Cl)ccc21 | visual reading | >100 µM |